Anti-infective test results gathered from many reports (values: NIAID ChemDB through PubChem).

All rows: growth or infection tests; species: Herpes simplex virus 2; read by: plaque count; measure: EC50

Rows are shuffled and stem from different studies.

compound | strain | cell line | value
Cc1cn([C@@H]2O[C@H](CO)[C@H]2CO)c(=O)[nH]c1=O | 8705 | HFF | 0.5 µg/mL
O=C(NCc1ccc(Cl)cc1)c1cn2c3c(cc(CN4CCOCC4)cc3c1=O)OC(c1cccnc1)C2 | L6191456 ACV resistant | HFF | >18 µM
Nc1nc2c(ncn2CC[C@@H](O)CO)c(=O)[nH]1 | 91075 (acyclovir-resistant) | VERO | ≥250 µM
Nc1nc2c(ncn2CC[C@H](O)CO)c(=O)[nH]1 | 72 | VERO | 32 µM
c1csc(-c2cc3ccccn3c2)c1 | 186 | VERO | >100 µM
Nc1nc2c(ncn2CC(CO)CCO)c(=O)[nH]1 | 91075 | SIRC | 2.7 µM
CC(=O)c1c(-c2ccc(OC(F)(F)F)cc2)cc2ccccn12 | 186 | VERO | >100 µM
O=c1[nH]c(=O)n([C@H]2C[C@H](O)[C@@H](CO)O2)cc1I | MS-M1 | VERO | 6.1 µM
Brc1sccc1-c1cc2ccccn2c1 | 186 | VERO | >100 µM
O=c1[nH]c(=O)n([C@H]2C[C@H](O)[C@@H](CO)O2)cc1/C=C/Br | HG-52 | HELF | 5.8 µg/mL
Cn1cc(C(=O)NCc2ccc(Cl)cc2)c(=O)c2cc(CN3CCOCC3)ccc21 | 13077 (ACV-resistant) | HFF | 2.2 µM
CC(=O)OC[C@H]1[C@H](COC(C)=O)[C@@H](COC(C)=O)O[C@H]1n1cnc2c(N)ncnc21 | MS | MEF | 223 µM
O=c1[nH]c(=O)n([C@@H]2O[C@H](COP(=O)(O)O)[C@@H](O)[C@@H]2O)cc1/C=C/Br | UW-268 | HELF | 15.1 µg/mL
CCCCC(=O)OC[C@H]1O[C@@H](n2cnc3c(N)ncnc32)[C@@H](O)[C@@H]1O | X-79 | MEF | 19 µM
Cc1cn([C@@H]2O[C@H](CO)[C@@H](O)[C@@H]2O)c(=O)[nH]c1=O | UW-268 | HELF | 0.52 µg/mL
Nc1nc2c(ncn2COCCO)c(=O)[nH]1 | Lovelace MS | VERO | 0.8 µM
CC[C@H](C)[C@H](N)[C@H](O)n1nc(C)c2c(Cl)c3cc(OC)ccc3nc21 |  | WI-38 | 7 µg/mL
N#Cc1ccc(-c2cc3ccccn3c2)cc1 | 186 | VERO | >100 µM
Cc1cn([C@@H]2O[C@H](CO)[C@@H](O)[C@@H]2F)c(=O)[nH]c1=O | MS | HELF | 0.011 µg/mL
Nc1nc2c(ncn2CC[C@@H](O)CO)c(=O)[nH]1 | B4327 | VERO | 11 µM
Nc1nc2c(ncn2CCC(CO)CO)c(=O)[nH]1 | 186 | MRC-5 | 1.2 µg/mL
O=C(O)P(=O)(O)O | X-79 | MEF | 31 µg/mL
Cn1cc(C(=O)NCc2ccc(Cl)cc2)c(=O)c2cc(CN3CCOCC3)ccc21 | MS-M1 | VERO | >50 µM
Nc1nc2c(ncn2COCCO)c(=O)[nH]1 | Jensen | HFF | 0.3 µg/mL
Cn1cc(C(=O)NCc2ccc(Cl)cc2)c(=O)c2cc(/C=C\CO)cc(F)c21 | MS | VERO | 2 µM
Cc1cn([C@@H]2O[C@H](CO)[C@@H](O)[C@@H]2F)c(=O)[nH]c1=O | MS | VERO | 2.1 µM

2 of the rows above, restated:

compound,strain,cell line,value
O=c1[nH]c(=O)n([C@@H]2O[C@H](COP(=O)(O)O)[C@@H](O)[C@@H]2O)cc1/C=C/Br,UW-268,HELF,15.1 µg/mL
Cc1cn([C@@H]2O[C@H](CO)[C@H]2CO)c(=O)[nH]c1=O,8705,HFF,0.5 µg/mL

Blank or dashed fields: not listed here. ECn is the concentration giving n% inhibition of infection, replication or growth.